Data reported in article PMC10382498, “Host susceptibility and structural and immunological insight of S proteins of two SARS-CoV-2 closely related bat coronaviruses” (2023).

Experiments:
[1] = target: BANAL-20-52 S ectodomain trimer (residues 1-1204, K982P and V983P, foldon) (bat coronavirus BANAL-20-52); test: cryo-EM structure
[2] = target: BANAL-20-236 S ectodomain trimer (residues 1-1200, K978P and V979P, foldon) (bat coronavirus BANAL-20-236); test: cryo-EM structure

Substance	stoichiometry N [1]	stoichiometry N [2]
BANAL-20-52 S ectodomain trimer (residues 1-1204, K982P and V983P, foldon) (domain or fragment)	3	
BANAL-20-236 S ectodomain trimer (residues 1-1200, K978P and V979P, foldon) (domain or fragment)		3
